# Experimental data as given in article PMC8370201, “Amaryllidaceae Alkaloid Cherylline Inhibits the Replication of Dengue and Zika Viruses” (Antimicrobial Agents and Chemotherapy, 2021).
# Columns and labels:
# [1] = test system: hygromycin-resistant replicon (DENV subgenomes); assay: Escape mutant selection with hygromycin-resistant DENV replicon; conditions: continuous treatment of 30 days
# [2] = test system: sg-DVs-R2A WT (viral RNA replication); conditions: Huh7.5, 48 to 72 hpe; cherylline 50 μM, NITD008 5 μM
# [3] = test system: sg-DVs-R2A GND (DENV RNA translation); conditions: Huh7.5, 4 hpe; cherylline 50 μM, NITD008 5 μM
SMILES,generation of resistant DENV subgenomes [1],"reduction of relative light units [RLU], sg-DVs-R2A WT [2]",luminescence of sg-DVs-R2A GND (translation) [3]
"COc1cc2c(cc1O)CN(C)C[C@H]2c1ccc(O)cc1 [Cherylline, cherylline]",cells containing resistant DENV subgenomes were not generated,3 log10,no effect on the luminescence
"C#C[C@@]1(O)[C@H](O)[C@@H](CO)O[C@H]1n1ccc2c(N)ncnc21 [NITD008, reference compound]",,3 log10,no effect on the luminescence
